From the supplement of paper PMC9931576
Human monoclonal antibodies against the spike receptor-binding domain (heavy:light variable regions). IC50 against pseudoviruses bearing the spike of naturally observed variants; lower = stronger; >10 µg/ml means not reached at the top dose. No active / inactive call. The stated detection limit is 0.0005 µg/ml; values near or below 0.001 µg/ml lie at the floor of the assay.

B1: BD55-6511 (protein)
chain 1: VQLVQSGAELRKPGESLRISCQGSGYRFSNNWITWVRQVPGKGLEWMGRMDPTDSYAKYSPSFQGHVTMSADTSISTAYLQWSSLKASDTATYYCATQLCGGDCPIESWGPGTLVTVSS
chain 2: DIQMTQSPSSVSASVGDRVTITCRASPGIRHYVAWFQQKPGKAPKSLIYAASSLHSGVPFRFSGSGSGTDFTLTINSLQPEDFATYYCQQYDTNPPTFGPGTKVEVK
B2: BD55-6539 (protein)
chain 1: EVQLLESGGGLVQPGGSLRLSCAASGFTFMRYAMSWVRQAPGKGLEWVSSMSGSGGNTYYADSVKGRFTISRDNSKNTLYLQMSSLRAEDTAVYYCVKDWSHYYDLSGYYPWVFDSWGQGTLVTVSS
chain 2: DIQMTQSPSSLSASVGDRVTITCRASQTINSYLHWYQQKPGKAPRLLIYAASSLQSGVPSRFSGSGSGTDFTLTISSLQPEDFATYYCQQSYSTPTFGQGTKVEIK
B3: BD55-6503 (protein)
chain 1: EVQLLGSGGGLVQPGGSLTLSCAASGFTFSSYTMTWFRQGPGKGLAWVSSISRSGGGAFHADAVKGRFTISRDNSKSTLYLQMNSLRVEDTAVYYCAKDFGDSVGEYFDYWGQGILVTVSS
chain 2: DIVMTQSPDSLAVSLGERATINCKSSQSILSSSKNQHYLAWYQQKPGQPPRLLIYWASTRASGVPDRFSGSGSGTDFTLTISSLQAEDAAVYYCQQYYVTPALTFGGGTKVEIK
B4: BD55-6495 (protein)
chain 1: EVQLVESGGGLVQPGGALRLTCAASGFSFSRFWMNWVRQAPGKGLEWVANIKEDGNEKNYVDSVKGRFTIFRDNAEKSLFLQMESLRGDDTAVYYCARGYRDVVVAAPIPPEAFDIWGQGTTVTVSS
chain 2: SYELTQPPSVSVSPGQTARITCSGEALPRQNAYWYQQKPGQAPVLVIYKDTERPSGIPERFSGSSSGTKVTLTIRGVQAEDEADYYCQSADSSGTSYVFGPGTKVTVL
B5: BD55-6516 (protein)
chain 1: EVQVVESGGGLVKPGGSLRLSCAGSGFTFNYAWMNWVRQAPGKGLEWVGRIKSETGGGTIDYAAPVRGRFIISRDDSKNMVYLHMNSLKTEDTAVYYCTTEATVTTWDALDIWGQGTLVTVSA
chain 2: QSVLTQPPSASGTSGQRVTISCSGSSSNIGSNSVNWYQQIPGTAPKLLIYRNNQRPSGVPDRFFASKSGTSASLAISGLHSDDEADYYCAAWDDRLNGFVFGTATKVTVL
B6: BD55-6537 (protein)
chain 1: EVHLEESGGGLVQPGKPLRLSCAASGFEFSSYSMNWVRQAPGKGLEWVAYVSSSGSTKQYGDSVRGRFTISRDNAKNSLFLQMNSLRDEDTAVYYCVRKKGSHDILTGYWHRDVFEIWGQGTKVIVSS
chain 2: DIQMTQSPSTLSASVGERVTITCRASQGISRWLAWYQQKPGRAPNLLIYETSSLESGVPSRFSGSGSGTVFTLTITSLQPDDFATYYCQQYYSDSRTFGQGTKVEIK

Molecular target: SARS-CoV-2 Omicron BA.1 spike pseudovirus
Experiment: pseudovirus neutralization IC50; higher = weaker neutralization
Method: (§1)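 Single-round VSV luciferase pseudovirus mixed with antibody dilutions for 1 h and put on Huh-7 cells for about a day; IC50 from the dose curve.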

Row | Binder | pseudovirus neutralization IC50
1 | B1 | > 10 mg/L
2 | B2 | > 10 mg/L
3 | B3 | > 10 mg/L
4 | B4 | > 10 mg/L
5 | B5 | > 10 mg/L
6 | B6 | > 10 mg/L

Molecular target: SARS-CoV-2 Omicron BA.2 spike pseudovirus
Experiment: as above
Method: as §1

Row | Binder | pseudovirus neutralization IC50
7 | B1 | > 10 mg/L
8 | B2 | > 10 mg/L
9 | B3 | > 10 mg/L
10 | B4 | > 10 mg/L
11 | B5 | > 10 mg/L
12 | B6 | > 10 mg/L

Molecular target: SARS-CoV-2 Omicron BA.2.75 spike pseudovirus
Experiment: as above
Method: as §1

Row | Binder | pseudovirus neutralization IC50
13 | B1 | > 10 mg/L
14 | B2 | > 10 mg/L
15 | B3 | > 10 mg/L
16 | B4 | > 10 mg/L
17 | B5 | > 10 mg/L
18 | B6 | > 10 mg/L

Molecular target: SARS-CoV-2 Omicron BA.5 spike pseudovirus
Experiment: as above
Method: as §1

Row | Binder | pseudovirus neutralization IC50
19 | B1 | > 10 mg/L
20 | B2 | > 10 mg/L
21 | B3 | > 10 mg/L
22 | B4 | > 10 mg/L
23 | B5 | > 10 mg/L
24 | B6 | > 10 mg/L

Molecular target: SARS-CoV-2 Omicron BQ.1.1 spike pseudovirus
Experiment: as above
Method: as §1

Row | Binder | pseudovirus neutralization IC50
25 | B1 | > 10 mg/L
26 | B2 | > 10 mg/L
27 | B3 | > 10 mg/L
28 | B4 | > 10 mg/L
29 | B5 | > 10 mg/L
30 | B6 | > 10 mg/L

Molecular target: SARS-CoV-2 Omicron XBB spike pseudovirus
Experiment: as above
Method: as §1

Row | Binder | pseudovirus neutralization IC50
31 | B1 | > 10 mg/L
32 | B2 | > 10 mg/L
33 | B3 | > 10 mg/L
34 | B4 | > 10 mg/L
35 | B5 | > 10 mg/L
36 | B6 | > 10 mg/L

Molecular target: SARS-CoV-2 early D614G spike pseudovirus
Experiment: as above
Method: as §1

Row | Binder | pseudovirus neutralization IC50
37 | B1 | > 10 mg/L
38 | B2 | > 10 mg/L
39 | B3 | > 10 mg/L
40 | B4 | 4.11 mg/L
41 | B5 | > 10 mg/L
42 | B6 | 1.96 mg/L
